Laboratory results as given in PMC10026892.
pKd: −log10 of the molar value.

Target: ACE2-Fc (UniProt Q9BYF1)
Assay: SPR

Substance: B.1.351 S-Trimer protein (prefusion-stabilized SARS-CoV-2 spike ectodomain with T4 fibritin trimerization motif) (from UniProt P0DTC2 12-1208)
- pKd: 9.35
